Results on 1 substance are retold here after PMC4176424, “Thiolation-enhanced substrate recognition by D-alanyl carrier protein ligase DltA from Bacillus cereus” (F1000Research, 2014).

For one data set, the system named is C[C@H](N)C(=O)O. The experiment in a line: purified protein. The conditions noted are these: 5 mM ATP, 5 mM CoA, 10 mM MgCl2, 0.1 M KCl, pH 7.2.
Another data set has as its system C[C@@H](N)C(=O)O. Nature of the data set: purified protein. The settings on record: 5 mM ATP, 5 mM CoA, 10 mM MgCl2, 0.1 M KCl, pH 7.2.

In the case of “BcDltA (D-alanyl carrier protein ligase DltA) (Bacillus cereus ATCC 14579; C269A)”, in the data set with C[C@H](N)C(=O)O, the Km is 8.8 ± 0.5 × 10^-3 M; the kcat (as a rule, the number of substrate molecules converted per active site and unit of time at saturation) came out at 0.275 s⁻¹; the catalytic efficiency (kcat/Km) (as a rule, the second-order rate constant that governs catalysis at low substrate concentration) turned out to be 31.7 M⁻¹ s⁻¹. Moreover, in the data set on C[C@@H](N)C(=O)O, the Km is 0.50 ± 0.05 × 10^-3 M, the kcat came out at 0.263 s⁻¹ and the specificity constant (kcat/Km) came to 533 M⁻¹ s⁻¹.
